# Replication capacity of HIV-1 mutants, RT

Protein: RT of HIV-1 NL4-3, numbered from its first residue.
Effects on overlapping genes or RNA elements are not listed.

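Random point mutant libraries of HIV-1 NL4-3, one for each of seven fragments, were passaged in CEM T lymphocytes. Sequencing gave the RC index: frequency after two rounds over frequency in the input plasmid.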

Values are the RC index; higher means better tolerated. The authors read about 0.1 or less as lethal, 0.1-0.2 as attenuated and 0.2 or more as tolerated. A change reads original residue, position, new residue. Since each clone held several changes (about five per kb), neutral changes can read low. The authors read an index above 1 as above wild type (1.9% of all changes in the genome). Base changes are numbered along pNL4-3.

- Y146H (base T2985C) -> 0.161
- V241L (base G3270T) -> 0.0193
- K388I (base A3712T) -> 0.0439
- P387L (base C3709T) -> 0.180
- N81S (base A2791G) -> 0.0430
- I135L (base A2952T) -> 0.0221
- V423A (base T3817C) -> 0.136
- A538E (base C4162A) -> 0.138
- T128S (base C2932G) -> 0.0378
- E404V (base A3760T) -> 0.0200
- N306D (base A3465G) -> 0.0340
- A114E (base C2890A) -> 0.0558
- E44A (base A2680C) -> 0.0888
- R172I (base G3064T) -> 0.249
- L486W (base T4006G) -> 0.106
- K166Q (base A3045C) -> 0.0451
- E298D (base A3443T) -> 0.00909
- E404K (base G3759A) -> 0.242
- Y532C (base A4144G) -> 0.0759
- F416Y (base T3796A) -> 0.0504
- R83G (base A2796G) -> 0.164
- R78I (base G2782T) -> 0.0454
- I482S (base T3994G) -> 0.0950
- T131N (base C2941A) -> 0.134
- K540E (base A4167G) -> 0.0352
- L533V (base C4146G) -> 0.0352
- V245M (base G3282A) -> 0.0490
- I270M (base T3359G) -> 0.0489
- I556T (base T4216C) -> 0.0432
- Y342N (base T3573A) -> 0.0745
- V417I (base G3798A) -> 0.184
- Q407L (base A3769T) -> 0.0740
- A508T (base G4071A) -> 0.105
- W398C (base G3743T) -> 0.328
- V148G (base T2992G) -> 0.101
- A327T (base G3528A) -> 0.835
- W88C (base G2813T) -> 0.160
- W88L (base G2812T) -> 0.351
- N474S (base A3970G) -> 0.0270
- K530N (base A4139T) -> 0.0465
- T439S (base A3864T) -> 0.166
- K173R (base A3067G) -> 0.0394
- S163I (base G3037T) -> 0.0626
- Y56F (base A2716T) -> 0.0435
- K550R (base A4198G) -> 0.0602
- D113E (base T2888A) -> 0.0586

The opening 3 entries, copied out:

- Y146H (base T2985C) -> 0.161
- V241L (base G3270T) -> 0.0193
- K388I (base A3712T) -> 0.0439

The measurements come from Al-Mawsawi et al. 2014 (doi:10.1186/s12977-014-0124-6).